Data from patent US20100104550.

Key:
[1] = target: purified human Hsc70 (Stressgen), P11142
[2] = target: purified human Hsp70 (Stressgen), P0DMV8

B1: Subtilase cytotoxin (SubAB) holotoxin (protein)
chain 1: EKPWYFDAIGLTETTMSLTDKNTPVVVSVVDSGVAFIGGLSDSEFAKFSFTQDGSPFPVKKSEALYIHGTAMASLIASRYGIYGVYPHALISSRRVIPDGVQDSWIRAIESIMSNVFLAPGEEKIINISGGQKGVASASVWTELLSRMGRNNDRLIVAAVGNDGADIRKLSAQQRIWPAAYHPVSSVNKKQDPVIRVAALAQYRKGETPVLHGGGITGSRFGNNWVDIAAPGQNITFLRPDAKTGTGSGTSEATAIVSGVLAAMTSCNPRATATELKRTLLESADKYPSLVDKVTEGRVLNAEKAISMFCKKNYIPVRQGRMSEEL
chain 2: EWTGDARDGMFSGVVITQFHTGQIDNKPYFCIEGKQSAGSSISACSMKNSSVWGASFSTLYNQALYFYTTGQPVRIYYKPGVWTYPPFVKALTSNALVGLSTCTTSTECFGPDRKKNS
Q: For B1, which “in vitro cleavage of purified chaperone, SDS-PAGE” value [1] is on record?
A: The value was “SubAB did not cleave purified human Hsp70 and Hsc70 proteins in vitro”.

Q: What about the “in vitro cleavage of purified chaperone, SDS-PAGE” value [2] of the same protein?
A: The value was “SubAB did not cleave purified human Hsp70 and Hsc70 proteins in vitro”.
